Earlier results on one molecule are cited in paper PMC8427777 (ACS Omega, 2021).

The subject of this series is COVID-19. Conditions: anti-C5 antibody; cited from earlier work.

B1: Eculizumab: anti-C5 antibody (antibody, chains of the INN, looked up)
heavy: QVQLVQSGAEVKKPGASVKVSCKASGYIFSNYWIQWVRQAPGQGLEWMGEILPGSGSTEYTENFKDRVTMTRDTSTSTVYMELSSLRSEDTAVYYCARYFFGSSPNWYFDVWGQGTLVTVSSASTKGPSVFPLAPCSRSTSESTAALGCLVKDYFPEPVTVSWNSGALTSGVHTFPAVLQSSGLYSLSSVVTVPSSNFGTQTYTCNVDHKPSNTKVDKTVERKCCVECPPCPAPPVAGPSVFLFPPKPKDTLMISRTPEVTCVVVDVSQEDPEVQFNWYVDGVEVHNAKTKPREEQFNSTYRVVSVLTVLHQDWLNGKEYKCKVSNKGLPSSIEKTISKAKGQPREPQVYTLPPSQEEMTKNQVSLTCLVKGFYPSDIAVEWESNGQPENNYKTTPPVLDSDGSFFLYSRLTVDKSRWQEGNVFSCSVMHEALHNHYTQKSLSLSLG
light: DIQMTQSPSSLSASVGDRVTITCGASENIYGALNWYQQKPGKAPKLLIYGATNLADGVPSRFSGSGSGTDFTLTISSLQPEDFATYYCQNVLNTPLTFGQGTKVEIKRTVAAPSVFIFPPSDEQLKSGTASVVCLLNNFYPREAKVQWKVDNALQSGNSQESVTEQDSKDSTYSLSSTLTLSKADYEKHKVYACEVTHQGLSSPVTKSFNRGEC
Take B1: the “outcome in COVID-19 treatment” value is “favorable outcome”.
